Measured values from several laboratories, pooled; numbers as filed in NIAID ChemDB.

Common to all: whole-cell or culture tests; organism: HIV-1; cells: MT-4; read-out: EC50

Lines come from different laboratories, so protocols vary. ECn is the concentration giving n% inhibition of infection, replication or growth. Two numbers with a dash give a range or band. An empty or dashed field is not shown.

smiles,changes,strain,read by,result
CC1(C)[C@@H](CCO)C[C@H]1n1nnc2c(N)nc(N)nc21,,,cytopathic effect,>100 µg/mL
Cc1ncn(Nc2ccc(F)cc2)c1-c1ccccc1,,IIIB,cytopathic effect / MTT,>30.82 µM
Cc1cn([C@H]2C[C@H](O)[C@@H](COC(=O)C3CCC(C(=O)O)CC3)O2)c(=O)[nH]c1=O,,,cytopathic effect / XTT,>100 µg/mL
O=c1[nH]c(=O)n([C@H]2C=C[C@@H](CO)O2)cc1Cl,,IIIB,cytopathic effect / trypan blue,>20 µM
N#Cc1cc2[nH]c3ccccc3c2n(-c2ccc([N+](=O)[O-])cc2)c1=O,RT-Y188L,F,cytopathic effect / MTT,1.26 µM
CC1(C)[C@@H](CCO)C[C@H]1n1nnc2c(N)ncnc21,,,cytopathic effect,>100 µg/mL
Cc1cn([C@H]2C[C@H](N=[N+]=[N-])[C@@H](CO)O2)c(=O)[nH]c1=O,,IIIB,MTT,0.0019 µM
CC1(C)[C@@H](CCO)C[C@H]1n1cnc2c(N)ncnc21,,,cytopathic effect,>250 µg/mL
Cc1nc2c(ccn2Cc2cccc(F)c2F)c(-c2ccc3c(c2C)N(C)CCO3)c1[C@H](OC(C)(C)C)C(=O)O,,,luciferase,0.006 µM
COc1ccc(Nc2nnc(C(NS(=O)(=O)c3ccc(Cl)cc3)C(C)C)s2)cc1,,IIIB,MTT,>10.08 µM
N#Cc1cc(Cl)cc(Oc2cc(OCc3nc4cccc(Cl)c4o3)ccc2Cl)c1,,,p24,<20 µM
COC(=O)[C@H](C)NC(O)(Oc1ccccc1)Oc1nc(N(C)C)nc(C(C)c2c(F)cccc2F)c1C,K103N + Y181C,,MTT,>25 µM
CC(C)(C)NC(=O)[C@@H]1C[C@@H]2CCCC[C@@H]2CN1C[C@@H](O)CNC(=O)[C@@H]1N[C@@H]([C@H](NC(=O)Cc2ccccc2)C(=O)NCc2ccccc2)SC1(C)C,,RF,cytopathic effect / MTT,13.6 µM
Cc1ccnc2c1NC(=O)c1cccnc1N2C1CC1,,IIIB,MTT,0.05 µM
Cc1ncn(Nc2cccc(Cl)c2)c1-c1cccc(Br)c1,,IIIB,cytopathic effect / MTT,0.58 µM
Cc1cn(N2CC[C@@H](CO)C2)c(=O)[nH]c1=O,,RF,,>100 µg/mL
Clc1ccc(-c2nnc3sc(CC45CC6CC(CC(C6)C4)C5)nn23)cc1,,IIIB,cytopathic effect / MTT,>125 µg/mL
COc1ccc(Nc2nnc(C(NS(=O)(=O)c3ccc(C)cc3)C(C)C)s2)cc1,,IIIB,MTT,>16.99 µM
CCNC(=O)[C@@H](NC(=O)Cc1ccccc1)[C@@H]1N[C@@H](C(=O)NC[C@H](O)CN2C[C@H]3CCCC[C@H]3C[C@H]2C(=O)NC(C)(C)C)C(C)(C)S1,,RF,cytopathic effect / MTT,0.43 µM
CCc1c(Cc2c(Cl)cccc2Cl)nc(SC/C=C/c2ccc(C#N)cc2)[nH]c1=O,RT-K103N,NNRTI-resistant,cytopathic effect / MTT,>34.82 µM
COc1ccc(S(=O)(=O)NC(c2nnc(Nc3ccc(F)cc3)s2)C(C)C)cc1,,IIIB,MTT,>9.34 µM
Cc1ccc(-c2c([C@H](OC(C)(C)C)C(=O)O)c(C(F)(F)F)c3c(c2C(F)(F)F)CN(C(C(=O)O)c2ccccc2)C3)cc1,,,luciferase,4.4 µM
CN1c2ccccc2C2C1C=CC(=O)N2c1ccc(-c2nc(C(=O)O)cs2)cc1,,LAI,cytopathic effect / MTT,1–32 µM
Cc1cn([C@H]2C[C@H](O)[C@@H](COC(=O)CCCC(=O)O)O2)c(=O)[nH]c1=O,,,cytopathic effect / XTT,>100 µg/mL
NS(=O)(=O)c1ccc(NC(=O)CNc2cccc(Oc3ccccc3)c2)c(Cl)c1,,,p24,<20 µM
Cc1ccc(-c2c([C@H](OC(C)(C)C)C(=O)O)c(C(F)(F)F)c3c(c2C(F)(F)F)CN(C(=O)c2cccc(F)c2)C3)cc1,,,luciferase,0.005 µM
Cc1cn(C2C[C@H](N=[N+]=[N-])[C@@H](COP(=O)(Nc3cc(C(=O)Nc4cc(C(=O)Nc5cc(C(=O)NCCC#N)n(C)c5)n(C)c4)n(C)c3)OC(C)C)O2)c(=O)[nH]c1=O,,,p24 / antigen,0.013 µM
NS(=O)(=O)c1ccc(NC(=O)COc2cccc(Cc3ccccc3)c2)c(Cl)c1,,,p24,<20 µM
CC(C)CN(C[C@@H](O)[C@H](Cc1cc(F)cc(F)c1)NC(=O)O[C@H]1C2CO[C@H]3OCC1C3C2)S(=O)(=O)c1ccc2nc(NC3CC3)sc2c1,,LAI,p24 / luminescence,0.000017 µM
COc1ccc(CSc2nc(C(=O)c3cccc(F)c3)c(C(C)C)c(=O)[nH]2)cc1,,IIIB,MTT,6.52 µM
Cc1cn([C@H]2CC[C@@H](COCP(=O)([O-])[O-])O2)c(=O)[nH]c1=O,,IIIB,cytopathic effect,>500 µM
COc1cc2nc(-c3c(F)cccc3F)n(Cc3c(F)cccc3F)c2cc1Cc1c(F)cccc1F,,IIIB,RT activity,31.22 µM
Cc1cccc(Nn2c(-c3ccccc3)c(C(C)C)[nH]c2=S)c1,,IIIB,cytopathic effect / MTT,>42.63 µM
Nc1nc(=O)n([C@H]2CC[C@@H](CO)O2)cc1Cl,,IIIB,cytopathic effect / trypan blue,>500 µM
COc1ccc(S(=O)(=O)NC(Cc2ccccc2)c2nnc(Nc3ccc(F)cc3)s2)cc1,,IIIB,MTT,>2.04 µM
COc1ccc(S(=O)(=O)Nc2nnc(C(CC(C)C)NS(=O)(=O)c3ccc(C)cc3)s2)cc1,,IIIB,MTT,9.25 µM
COc1ccc(CSc2nc(C(=O)c3ccc(Br)cc3)c(C)c(=O)[nH]2)cc1,,IIIB,MTT,15.99 µM
Brc1ccc(-c2nnc3sc(CC45CC6CC(CC(C6)C4)C5)nn23)cc1,,IIIB,cytopathic effect / MTT,>125 µg/mL
COc1ccc(CSc2nc(C(=O)c3ccc(F)cc3)c(C)c(=O)[nH]2)cc1,,IIIB,MTT,6.35 µM
COc1ccc(S(=O)(=O)NC(c2nnc(Nc3ccc(Br)cc3)s2)C(C)C)cc1,,IIIB,MTT,>9.39 µM
O=C(O)CN(CCCN(CCN(CC(=O)O)CC(=O)O)Cc1cnc2c(O)cccc2c1)CC(=O)O,,HXB2,RT activity,19.3 µM
Cc1cn([C@H]2C[C@H](O)[C@@H](COC(=O)CCCCCC(=O)O)O2)c(=O)[nH]c1=O,,,cytopathic effect / XTT,>100 µg/mL
S=c1[nH]c(-c2ccccc2)c(-c2ccccc2)n1Nc1cccc(Cl)c1,RT-K103N Y181C,SO561945 (RT K103N Y181C),cytopathic effect / MTT,>36.31 µM
CCCCCCCNC(=O)[C@@H](NC(=O)Cc1ccccc1)[C@@H]1N[C@@H](C(=O)NCC(O)CN2C[C@H]3CCCC[C@H]3C[C@H]2C(=O)NC(C)(C)C)C(C)(C)S1,,RF,cytopathic effect / MTT,>100 µM
Cc1ccc(S(=O)(=O)NC(c2nnc(Nc3ccc(Br)cc3)s2)C(C)C)cc1,,IIIB,MTT,>6.49 µM
CC(C)CCC[C@@H](C)[C@H]1CC[C@H]2[C@@H]3CC[C@H]4C[C@@H](CCC=C(c5cc(Cl)c(O)c(C(=O)O)c5)c5cc(Cl)c(O)c(C(=O)O)c5)CC[C@]4(C)[C@H]3CC[C@]12C,,IIIB,cytopathic effect,20 µM
NCCC[C@@H](N)CC(=O)NCN,,IIIB,antigen,0.2 µg/mL
N#CC1=CC2Nc3ccccc3C2N(c2ccc(F)cc2)C1=O,,LAI,cytopathic effect / MTT,>32 µM
COc1cc2nc(-c3c(F)cccc3Cl)n(Cc3c(F)cccc3Cl)c2cc1Cc1c(F)cccc1Cl,,IIIB,RT activity,>18.75 µM
Cc1cn([C@H]2C[C@H](N=[N+]=[N-])[C@@H](COP(=O)(Nc3cc(C(=O)Nc4cc(C(=O)Nc5cc(C(=O)NCCC(=N)N)n(C)c5)n(C)c4)n(C)c3)OC3CCCCC3)O2)c(=O)[nH]c1=O,,,p24 / antigen,0.002 µM
Nc1nc(NC2CC2)c2ncn([C@H]3C=C[C@@H](CO)C3)c2n1,,IIIB,MTT,0.05 µg/mL
Cc1cn([C@H]2C=C[C@@H](COP(=O)(Nc3cc(C(=O)Nc4cc(C(=O)Nc5cc(C(=O)Nc6cc(C(=O)NCCC(=N)N)n(C)c6)n(C)c5)n(C)c4)n(C)c3)OC(C)C)O2)c(=O)[nH]c1=O,,,p24 / antigen,1.63 µM
C=Cc1cc(N(CC)CC)nc(S(=O)(=O)Cc2ccc(OC)cc2)n1,RT-Y181L,NNRTI-resistant,cytopathic effect / MTT,>42.9 µM
Cc1ccc2c(c1)nc(-c1c(F)cccc1F)n2Cc1c(F)cccc1F,,IIIB,RT activity,4.89 µM
O=c1[nH]c(=O)n([C@H]2C=C(CO)[C@@H](CO)S2)cc1F,,,,2.73 µg/mL
CC1=NO[C@@]2(CC[C@H](C)N3C[C@H]2n2cc(C(=O)NCc4ccc(F)cc4F)c(=O)c(OCOC(=O)CCC(C)C)c2C3=O)C1,,IIIB,luminescence,0.00214 µM
Cc1cn([C@H]2C[C@H](N)[C@@H](COCP(=O)(O)O)O2)c(=O)[nH]c1=O,,IIIB,cytopathic effect,500 µM
C=C1CN(S(=O)(=O)c2ccc(C)cc2)CCCN(CCC(C)C)CCCN(S(=O)(=O)c2ccc(C)cc2)C1,,NL4-3,p24,0.77 µM
Cc1ncn(Nc2cccc(Cl)c2)c1C,,IIIB,cytopathic effect / MTT,>214 µM
COc1ccc(Nc2nnc(C(C)NS(=O)(=O)c3ccc(C)cc3)s2)cc1,,IIIB,MTT,>41 µM
Cc1nc2c(ccn2Cc2cccc(Cl)c2F)c(-c2ccc3c(c2)CCCO3)c1C(OC(C)(C)C)C(=O)O,,,luciferase,0.068 µM
Cc1ccc(-c2nnc3sc(CC45CC6CC(CC(C6)C4)C5)nn23)cc1,,IIIB,cytopathic effect / MTT,>125 µg/mL
COc1ccc(/C=C/CSc2nc(Cc3c(F)cccc3F)c(C)c(=O)[nH]2)cc1,RT-K103N,NNRTI-resistant,cytopathic effect / MTT,>393 µM
C=C1CN(S(=O)(=O)c2ccc(Br)cc2)CCCN(Cc2ccccc2)CCCN(S(=O)(=O)c2ccc(Br)cc2)C1,,NL4-3,p24,1.84 µM
Cc1ccc(S(=O)(=O)NC(CC(C)C)c2nnc(N(S(=O)(=O)c3ccc(Cl)cc3)S(=O)(=O)c3ccc(Cl)cc3)s2)cc1,,IIIB,MTT,>4.09 µM
Cc1cn([C@H]2C[C@H](N=[N+]=[N-])[C@@H](COP(=O)(Nc3cc(C(=O)Nc4cc(C(=O)NCCC(=N)N)n(C)c4)n(C)c3)OC3CCCCC3)O2)c(=O)[nH]c1=O,,,p24 / antigen,0.018 µM
Cc1cc(OCC(=O)Nc2ccc(S(N)(=O)=O)cc2Cl)cc(Oc2cc(Cl)cc(C#N)c2)c1,,,p24,<20 µM
Cc1cn([C@H]2C[C@H](O)[C@@H](COC(=O)CCCCC(=O)O)O2)c(=O)[nH]c1=O,,,cytopathic effect / XTT,>100 µg/mL
C=C1CN(S(=O)(=O)c2ccc(C)cc2)CCCN(CC(C)C)CCCN(S(=O)(=O)c2ccc(C)cc2)C1,,NL4-3,p24,19.3 µM
Cc1cccc(Nn2cnc(C)c2C)c1,,IIIB,cytopathic effect / MTT,>312 µM
CC(C)(C)NC(=O)[C@@H]1C[C@@H]2CCCC[C@@H]2CN1C[C@H](O)CNC(=O)[C@@H]1N[C@@H]([C@H](NC(=O)Cc2ccccc2)C(=O)NCc2ccccc2)SC1(C)C,,RF,cytopathic effect / MTT,0.35 µM
CCc1c(C(C)c2c(F)cccc2F)nc(SC/C=C/c2ccc([N+](=O)[O-])cc2)[nH]c1=O,RT-K103N,NNRTI-resistant,cytopathic effect / MTT,>575 µM
Fc1cccc(-c2nnc3sc(CC45CC6CC(CC(C6)C4)C5)nn23)c1,,IIIB,cytopathic effect / MTT,>125 µg/mL
COc1ccc(Nc2nnc(C(Cc3ccccc3)NS(=O)(=O)c3ccc(C)cc3)s2)cc1,,IIIB,MTT,>63.55 µM

For reference, 6 entries again:

smiles | changes | strain | read by | result
Cc1nc2c(ccn2Cc2cccc(F)c2F)c(-c2ccc3c(c2C)N(C)CCO3)c1[C@H](OC(C)(C)C)C(=O)O |  |  | luciferase | 0.006 µM
N#Cc1cc2[nH]c3ccccc3c2n(-c2ccc([N+](=O)[O-])cc2)c1=O | RT-Y188L | F | cytopathic effect / MTT | 1.26 µM
Cc1cn([C@H]2C[C@H](N=[N+]=[N-])[C@@H](CO)O2)c(=O)[nH]c1=O |  | IIIB | MTT | 0.0019 µM
O=C(O)CN(CCCN(CCN(CC(=O)O)CC(=O)O)Cc1cnc2c(O)cccc2c1)CC(=O)O |  | HXB2 | RT activity | 19.3 µM
CC(C)(C)NC(=O)[C@@H]1C[C@@H]2CCCC[C@@H]2CN1C[C@@H](O)CNC(=O)[C@@H]1N[C@@H]([C@H](NC(=O)Cc2ccccc2)C(=O)NCc2ccccc2)SC1(C)C |  | RF | cytopathic effect / MTT | 13.6 µM
COc1cc2nc(-c3c(F)cccc3F)n(Cc3c(F)cccc3F)c2cc1Cc1c(F)cccc1F |  | IIIB | RT activity | 31.22 µM